# From the supplement of paper PMC9931576
# Human monoclonal antibodies against the spike receptor-binding domain (heavy:light variable regions). IC50 against pseudoviruses bearing the spike of naturally observed variants; lower = stronger; >10 µg/ml means not reached at the top dose. No active / inactive call. The stated detection limit is 0.0005 µg/ml; values near or below 0.001 µg/ml lie at the floor of the assay.
# B1: BD55-6616 (protein)
# chain 1: QVQLVQSGSELKKPGASVKVSCKASGYTFTNYAMHWVRQAPGQGLEWMGWINTNTGNPTYGQGFTGRFVFSLDTSVSTAYLQISSLKAEDTAVYYCARADRNYYGYEASDIWGQGTMVIVSS
# chain 2: DIQMTQSPSSLSASVGDRVTITCRASQSISNYLNWYQQKPGKAPNLLIYAASSLQSGVPSRFTGSGSGTDFTLTISSLQPEDFATYYCQQSYSSHLFTFGGGTKVEI
# B2: BD55-6617 (protein)
# chain 1: QVQLQQSGPGLVRPSGTLSLTCAVSGASVTSTDWWNWVRQSPKKGLEWIGEIYHNGGTNYNPSLKSRVTISIDTSKNQFSLKLASVTAADTAVYYCATAAGETHYYPMGSYSPFDNWGQGALVTVSS
# chain 2: DIVMTQSPDSLAVSLGERATINCKSSQSVLYSSNNKNYLAWYQQKPGQPPKKLIYWASTRESGVPDRFSGSGSGTDFTLTISSLQAEDVAVYYCQQYFHSPRAFGQGTRLEIK
# B3: BD55-1275 (protein)
# chain 1: QVQLVQSGAEVKKPGASVKVSCKASGYSFSSYYVHWVRQAPGQGLEWMGLINPSGASTRYAQKFQGTVTMTRDTSTSTVFMELSSLRSEDTAIYYCARAKIVPATDYFDYWGQGTLVTVSS
# chain 2: SYVLTQPPSVSVAPGQTARITCGANNIGSKNVHWYQQKPGQAPVLVVFDDSDRPSGIPERFSGSNSGNTATLTISRVEAGDEADYYCHLWDGSSVPLYVFGTGTKVTVL
# B4: BD55-6623 (protein)
# chain 1: EVQLVESGGGLVQPGRSLRLSCAASGFIFGDYGMHWVRQGPGKGLEWVSGISWNGGVKDYADSVKGRFTISRDNAKNSLYLQMNSLRIEDSALYYCARDPFSWGGIASAGVDYWGHGALVTVSS
# chain 2: NFMLTQPHSVSESPGKTVTISCTRSSGSIASNNVQWYQQRPGSSPTTVIYEDKKRPSGVPDRFSGFVDRSSNSASLSISGLKTEDEADYYCQSYDTSSNHGAWVFGGGTKLTVL
# B5: BD55-6624 (protein)
# chain 1: QVQLVESGGGVVQPGKSLRLSCTASGLTFRHYGFHWVRQAPGKGLEWVAVISYDGNDKYYAVSVKGRFTISRDDSKSTLYLQMNNLRPEDTAMYYCAKIDSPYCSASHCYSAVVDYWGQGTLVTVSS
# chain 2: DIQMTQSPSSLSASVGDRVTITCRASQTINTFLNWYQQRPGKAPKLLIYSASTLQSGVSSRFSGSGSGTDFTLTITSLQPEDFATFYCQQSYSPPFTFGPGTKVDV
# B6: BD55-6633 (protein)
# chain 1: EVQLLQSGAEVKKPGESLTISCKGSGYTFTSYWIGWVRQMPGKGLEFMGRIDPSDSYADYSPSFQGHVSISADRSSSTAYLQWSGLKASDTAMYYCATTTKGGYGSREMYGVDVWGQGTTVIVSS
# chain 2: DIQVTQSPSSVSASVGDRVTISCRASQGISSWLAWYQQKPGKAPKLLIYAASSLQIGVPSRFSGSGSGTDFTLTISSLQPEDFATYYCQQAKSFPYTFGQGTKLEIK
# B7: BD55-6634 (protein)
# chain 1: QVQLVQSGAEVKKPGSSVKVSCKASGDTFDTKTFNWVRQAPGQGLEWMGRIIPTLGRTDYAQKFQGRVTITADTSTSTAYMELSSLRSEDTAVYYCARVNTEWQRSFDFWGQGTLITVSS
# chain 2: DIVMTQSPLSLPVTPGEPASISCRSSQSLLHTNGHNYLDWYLQKPGQSPRLLIYLGSYRASGVPDRFSGSGSGTYFTLKISRVEAEDLGVYFCMQGLQSYTFGQGTKLEI
# B8: BD55-6635 (protein)
# chain 1: EERLVQSGAELKKPGESLRISCQASGYRFRNFWITWVRQMPGKGLEWMGRMDPTDSYSKYSPSFQGHVTFSADTSISTAYLQWSSLKASDTATYYCARQLCGGDCPIDFWGPGTLVTVSS
# chain 2: DIQMTQSPSSVSASVGDRVTITCRASQDIREYLAWFQQKPGQAPYSLIYTASSLHSGVPLRFSGSGSGTDFTLTISSLQPEDFATYYCQQYATNPPTFGPGTKVEVK
# B9: BD55-6639 (protein)
# chain 1: QLRLQESGPGLVKPSETLSLTCTVSGGSINSRTYYWGWIRQPPGKGLEWIGSIHSGGNTFFNSSLESRLTISVDTSKNQFSLKLTSVTAADTAVYYCAREGLGRVSFSYFGLDVWGQGTTVIVSS
# chain 2: DIVMTQSPLSLPVTPGEPASISCRSSQSLLHSNGFNYLDWYLQKPGQSPQLLIYLASNRASGVPDRFSGSGSGTDFTLKISRVEADDVGIYYCMQALKAPTFGQGTRLEIK
# B10: BD55-6645 (protein)
# chain 1: EVQLVESGGGLVQPGGSLRLACSASGFIFSKYPMHWVRQAPGKGLEYVSGISSDGGLPDYADSVKGRFTISRDNSKNTLYLRVSSLRPEDTAVYYCVKDQLARESIMAVLDFWGQGTLVTVSS
# chain 2: DIQMTQAPSSLSASVGDRVTITCRASQSIRNYLNWYQHKPGTAPKVLISAASSLQSGVPSRFTGSGSGTDFTLTISSLQPEDFATYYCQQSYTNPLTFGGGTKVEMK
# B11: BD55-6647 (protein)
# chain 1: QVQLVQSGAEVKKPGSSVKVSCKASGGTFSSNAISWVRQAPGQGLDWLGRIIPIFGTSSYAQKFQGRVTMTADESTGTAYMELSGLTSEDTAVYYCGRAGVLGGAGSYYIVDYWGQGSLVTVSS
# chain 2: NFVLTQPHSVSGSPGKTVTISCTRSSGSIDSDYVQWYQQRPGSAPTTVIFEHSQTPSGVPDRFSGSIDTSSNSASLTVSGLKTEDEADYYCQSYDSGTQAWVFGGGTKLTVL
# B12: BD55-6650 (protein)
# chain 1: EGQLVESGGGLVKPGRSLRLSCKGSGITFGDYAMSWFRQAPGKGLEWVGFIRGKAYGETTEYAASVRGRFTISRDDSESIAYLQMNSLKAEDTAVYYCSREGTFSYYYYYAMDVWGQGTTVTVSS
# chain 2: DIQMTQSPSSLSASVGDRVTITCRASQTISYYVNWYQQKPGKPPKLLIYAASSLQSGVPSRFSGSGSGTDFTLTINSLQPEDFATYYCQQSYSIPITFGQGTPLEIK
# Key:
# Experiment in all cases: pseudovirus neutralization IC50; higher = weaker neutralization
# [1] = target: SARS-CoV-2 Omicron BA.1 spike pseudovirus
# Method: (§1)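 Single-round VSV luciferase pseudovirus mixed with antibody dilutions for 1 h and put on Huh-7 cells for about a day; IC50 from the dose curve.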
# [2] = target: SARS-CoV-2 Omicron BA.2 spike pseudovirus
# Method: as §1
# [3] = target: SARS-CoV-2 Omicron BA.2.75 spike pseudovirus
# Method: as §1
# [4] = target: SARS-CoV-2 Omicron BA.5 spike pseudovirus
# Method: as §1
# [5] = target: SARS-CoV-2 Omicron BQ.1.1 spike pseudovirus
# Method: as §1
# [6] = target: SARS-CoV-2 Omicron XBB spike pseudovirus
# Method: as §1
# [7] = target: SARS-CoV-2 early D614G spike pseudovirus
# Method: as §1
Binder,pseudovirus neutralization IC50 [1] [µg/mL],pseudovirus neutralization IC50 [2] [µg/mL],pseudovirus neutralization IC50 [3] [µg/mL],pseudovirus neutralization IC50 [4] [µg/mL],pseudovirus neutralization IC50 [5] [µg/mL],pseudovirus neutralization IC50 [6] [µg/mL],pseudovirus neutralization IC50 [7] [µg/mL]
B1,> 10,> 10,> 10,> 10,> 10,> 10,> 10
B2,> 10,> 10,> 10,> 10,> 10,> 10,> 10
B3,> 10,> 10,> 10,> 10,> 10,> 10,> 10
B4,3.13,> 10,> 10,> 10,> 10,> 10,0.072
B5,> 10,> 10,> 10,> 10,> 10,> 10,> 10
B6,> 10,> 10,> 10,> 10,> 10,> 10,> 10
B7,> 10,> 10,> 10,> 10,> 10,> 10,> 10
B8,> 10,> 10,> 10,> 10,> 10,> 10,> 10
B9,> 10,> 10,> 10,> 10,> 10,> 10,> 10
B10,> 10,> 10,> 10,> 10,> 10,> 10,5.58
B11,> 10,> 10,> 10,> 10,> 10,> 10,0.178
B12,> 10,> 10,> 10,> 10,> 10,> 10,5.51
